Laboratory results published in publication PMC4997874 (Antimicrobial Agents and Chemotherapy, 2016).
Counter-ions that a name gives are not always drawn. Like-named read-outs stand apart in the source and are kept apart here.

Molecular target: PrP^Sc-seeded misfolding of ovine PrP^C (tg338 mouse brain homogenate seeded with scrapie brain homogenate) (Ovis aries, UniProt P23907, A136V/R171Q)
Conditions: sPMCA

Row | Structure (SMILES) | Inhibition of PrP^Sc-seeded misfolding (1 μM) | Percent reduction categorical score, PrP^Sc-seeded misfolding (1 μM, compared to the vehicle control (0.4% DMSO)) | Inhibition of PrP^Sc-seeded misfolding (4 μM)
1 | N=C(N)c1ccc(-c2ccc(-c3nc4ccc(C(=N)N)cc4[nH]3)s2)cc1 [DB818A] | strong inhibitory activity |  | 
2 | c1ccc2[nH]c(-c3ccc(-c4ccc(C5=NCCN5)cc4)s3)nc2c1 [DB932A] | strong inhibitory activity |  | 
3 | c1cc(-c2ccc(-c3nc4ccc(C5=NCCN5)cc4[nH]3)o2)ccc1C1=NCCN1 [DB302] | strong inhibitory activity |  | 
4 | c1ccc2[nH]c(-c3ccc(-c4ccc(C5=NCCN5)cc4)o3)nc2c1 [DB772, 2-(2-benzimidazolyl)-5-[4-(2-imidazolino)phenyl] furan dihydrochloride] | inhibited | 2 (2 represented at least a 1/2-log reduction in seeded misfolding (i.e., percent reduction exceeds the established cutoff of ≥68%)) | inhibited
5 | Cn1c(-c2ccc(-c3ccc(C4=NCCN4)cc3)o2)nc2ccccc21 [DB948] | lacked detectable inhibition |  | 
6 | N=C(N)c1ccc(-c2ccc(-c3nc4ccccc4[nH]3)o2)cc1 [DB771] | lacked any measurable inhibitory activity |  | 
